Test system: CD3299 riboswitch
Assay: In-line probing assay, binding to CD3299 riboswitch (Example A)

## Cc1cc2nc3c(=O)[nH]c(=O)nc-3n(CCCc3ccccc3)c2cc1C
  binding / activity against the CD3299 riboswitch (in words): high affinity
